Data: patent US20240016718A1 (priority 2020, published 2024)

Test system: sebum levels on the epidermis
Assay: Sebum level on the epidermis (sebum collected with glass cone and weighed)
Settings: Rhino mice, day 15; Dysport 0.1, 0.3, 1 U/mouse single i.d. (groups 3-5); Adapalene gel 0.1% topical daily (group 2)

## COc1ccc(-c2ccc3cc(C(=O)O)ccc3c2)cc1C12CC3CC(CC(C3)C1)C2 [Adapalene]
  Change in level of sebum on back skin versus vehicle: decrease
